# Test results reported in patent US20250059581A1, “METHOD OF BACTERIAL IDENTIFICATION AND TESTING OF BACTERIUM RESISTANT TO ONE OR MORE ANTIBIOTICS” (Nanyang Technological University, priority 2021, published 2025).
# System: S. aureus
# Experiment: Bacterial growth inhibition by D-Ala-N3
# Settings: D-Ala-N3 1.5 mM
smiles,measurement,value
Cl.[N-]=[N+]=NC[C@@H](N)C(=O)O,potential bacterial growth inhibition,would not have significant inhibition on bacterial growth
